Consider one substance from patent US6699656B2, “Treatment and prevention of HIV infection by administration of derivatives of human chorionic gonadotropin” (University of Maryland Biotechnology Institute, priority 1996, dated 2004).

For this test, the system named is HIV-1 LTR. Kind of test: HIV-1 LTR driven CAT reporter expression in HUT 78. In kind it is cell-based. The settings on record: not shown.

In the case of “hCG: human chorionic gonadotropin preparation, brand not stated at the place (or both Pregnyl and APL, 'PA')”, the “response of constructs with point mutations in the enhancer (NFkB), SP-1 and TAR regions” value is reported as “essentially the same response”.
